Results deposited as PubChem BioAssay AID624099 (ICCB-Longwood, 2012)

- Test: 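Knock-downs relieving repression by E2 of an HPV18 LCR luciferase reporter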 (primary screen)
- System: human C33A cervical carcinoma cells (HPV-negative) stably expressing BPV1 E2 and an HPV18 LCR luciferase reporter
- Reagents: siRNA pool against human genes, 40 nM
- Timing: 72 h
- Measured: 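Per-well luciferase luminescence, z-scored on each plate against the plate mean and SD with control wells left out, then averaged across three replicate plates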
- Direction: mean z-score and z-score: higher = stronger reporter signal, weaker E2 silencing
- Active means: 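Mean z ≥ 2 together with z ≥ 2 in two or more of the three replicates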
In all, the deposit lists about 21,000 reagents; shown is an unselected part. In the full data, 497 (2.4%) got an active call. 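Higher z means weaker E2 silencing; only reporter increases were scored, and knock-downs that hurt cell survival may mask genuine repressor factors.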 Entries without a mark were called inactive. Reagent sequences are not shown.

no.	target	mean z-score	z-score, replicate A	z-score, replicate B	z-score, replicate C
1	ALAS1	0.54	0.41	0.58	0.62
2	OGT	-0.01	-0.2	0.12	0.07
3	EIF2A	-0.52	-0.58	-0.26	-0.72
4	MTSS1	-0.07	-0.12	-0.07	-0.02
5	SCAMP5	0.67	0.51	0.76	0.74
6	WDR18	-0.51	-0.78	-0.6	-0.15
7	ABHD17C	-0.19	0.08	0.26	-0.93
8	CROCC	3.14 (active)	3.16	3.13	3.14
9	CORO1C	-1.07	-1.54	-0.9	-0.75
10	FOXA3	1.71	2.03	1.66	1.44
11	OR4F6	0.41	0.44	0.23	0.54
12	ZCCHC3	-0.99	-1	-0.88	-1.1
13	ZNF20	0.37	0.57	0.4	0.14
14	ZKSCAN8P2	0.42	0.41	0.02	0.84
15	CYP2U1	0.38	0.31	0.2	0.62
16	PRG4	-1.37	-1.14	-1.51	-1.44
17	MAPK10	0.2	0.24	0.06	0.28
18	PLAC9P1	0.22	0.22	0.09	0.37
19	ZC3H11B	-1	-0.82	-1.23	-0.96
20	EXOC7	0.39	0.17	0.53	0.48
21	TMEM51	-0.53	-0.2	-0.1	-1.3
22	MAPKBP1	1.59	1.34	1.39	2.04

Just “z-score, replicate C” (4 entries from above):
OGT: 0.07
EIF2A: -0.72
MTSS1: -0.02
SCAMP5: 0.74

The results go on.
no.	target	mean z-score	z-score, replicate A	z-score, replicate B	z-score, replicate C
23	TAS2R46	-1.22	-1.27	-1.17	-1.21
24	RNF215	-0.12	-0.34	0.09	-0.12
25	NPPB	0.45	0.49	0.5	0.36
26	LRRC14	0.4	0.62	0.4	0.17
27	WDR19	-0.88	-1.08	-0.22	-1.35
28	SCGB1D4	0.17	-0.06	0.21	0.35
29	DEUP1	0.35	0.69	0.03	0.33
30	MRPL32	0.42	0.12	0.42	0.73
31	RACGAP1P1	-1.35	-1.55	-1.23	-1.28
32	H4C3	-0.96	-0.94	-0.94	-0.99
33	PITPNC1	-0.83	-1.04	-0.91	-0.55
34	LOC401016 (retired record)	0.74	1.04	0.63	0.54
35	MAN1B1	-1.21	-1.1	-1.34	-1.2
36	ARHGAP29	-1.36	-1.21	-1.46	-1.41
37	CD68	1.06	0.91	1.08	1.2
38	STX19	0.28	0.22	0.33	0.29
39	CR1	0.16	0.08	0.25	0.14
